PubChem BioAssay AID624099, ICCB-Longwood, 2012

Screen: 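Knock-downs relieving repression by E2 of an HPV18 LCR luciferase reporter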 (primary screen)
Cell system: human C33A cervical carcinoma cells (HPV-negative) stably expressing BPV1 E2 and an HPV18 LCR luciferase reporter
Reagents: siRNA pool against human genes, 40 nM
Timing: 72 h
Detection: 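Per-well luciferase luminescence, z-scored on each plate against the plate mean and SD with control wells left out, then averaged across three replicate plates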
Scale: mean z-score and z-score: higher = stronger reporter signal, weaker E2 silencing
Hit rule: 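Mean z ≥ 2 together with z ≥ 2 in two or more of the three replicates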
Here is an unselected part of about 21,000 reagents tested. 497 of all reagents (2.4%) were called active. 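Higher z means weaker E2 silencing; only reporter increases were scored, and knock-downs that hurt cell survival may mask genuine repressor factors.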 A number with no mark means an inactive call. No sequences are given here.

gene symbol,PubChem SID,mean z-score,"z-score, replicate A","z-score, replicate B","z-score, replicate C"
TVP23B (trans-golgi network vesicle protein 23 homolog B),SID134324551,-0.29,-0.38,0.02,-0.5
RGS7BP (regulator of G protein signaling 7 binding protein),SID134327562,0.69,0.65,0.58,0.85
FOXH1 (forkhead box H1),SID134313498,0.29,0.1,0.29,0.47
XKR3 (XK related 3),SID134321937,-0.21,-0.01,-0.21,-0.43
SPRY4 (sprouty RTK signaling antagonist 4),SID134319500,-0.25,-0.33,-0.43,0.02
PDE6C (phosphodiesterase 6C),SID134312696,0.18,0.14,0.45,-0.04
CFAP184 (cilia and flagella associated protein 184),SID134319754,-0.25,-0.34,0.02,-0.42
NES (nestin),SID134328914,-0.45,-0.55,-0.42,-0.37
LINC03163 (long independently transcribed non-coding RNA 3163),SID134329037,0.32,0.03,0.48,0.47
ARHGEF17 (Rho guanine nucleotide exchange factor 17),SID134314467,-0.77,-1.12,-0.38,-0.8
"ACP5 (acid phosphatase 5, tartrate resistant)",SID134314344,-1.35,-1.34,-1.38,-1.34
MOB1B (MOB kinase activator 1B),SID134322222,1.53,1.77,1.7,1.12
TRIM6 (tripartite motif containing 6),SID134312242,-1.39,-1.43,-1.21,-1.54
PPP1CA (protein phosphatase 1 catalytic subunit alpha),SID134313768,1.41,1.37,1.47,1.4
APBA3 (amyloid beta precursor protein binding family A member 3),SID134316271,-0.2,-0.32,0,-0.28
LINC00511 (long independently transcribed non-coding RNA 511),SID134328739,0.49,1.32,-0.16,0.31
KIF20B (kinesin family member 20B),SID134309846,1.4,1.47,1.28,1.46
POP1 (POP1 ribonuclease P/MRP subunit),SID134318325,1.57,1.32,1.46,1.92
RUVBL1 (RuvB like AAA ATPase 1),SID134313818,0.4,0.3,0.36,0.53
VDAC2 (voltage dependent anion channel 2),SID134323532,-0.75,-0.72,-0.75,-0.77
LOC339760 (retired record),SID134325542,-0.25,-0.43,-0.09,-0.22
INTS1 (integrator complex subunit 1),SID134326301,4.94 (active),5.12,5.01,4.71
USP50 (ubiquitin specific peptidase 50),SID134329328,-0.74,-0.56,-0.78,-0.88
MTM1 (myotubularin 1),SID134312968,-0.88,-0.9,-0.94,-0.79
NAP1L2 (nucleosome assembly protein 1 like 2),SID134316471,-0.35,-0.23,-0.3,-0.51
OR1G1 (olfactory receptor family 1 subfamily G member 1),SID134313904,0.37,0.44,0.48,0.2
PPP4R1 (protein phosphatase 4 regulatory subunit 1),SID134323670,2.16 (active),2,2.13,2.36
TM2D1 (TM2 domain containing 1),SID134317758,0.41,0.66,0.3,0.29
HNRNPLL (heterogeneous nuclear ribonucleoprotein L like),SID134320344,0.87,0.85,0.84,0.93
ZNF429 (zinc finger protein 429),SID134329770,-0.14,-0.01,-0.26,-0.15
PURPL (p53 upregulated regulator of p53 levels),SID134327567,-0.39,-0.49,-0.21,-0.46
LOC388638 (retired record),SID134326991,0.06,0.56,-0.12,-0.25
HOXC4 (homeobox C4),SID134317687,0.57,0.72,0.67,0.34
AFF4 (ALF transcription elongation factor 4),SID134324001,-0.71,-0.76,-0.43,-0.92
TSHB (thyroid stimulating hormone subunit beta),SID134316817,0.64,0.56,0.75,0.62
CDK16 (cyclin dependent kinase 16),SID56478788,1.97,1.8,2.16,1.95
FAF1 (Fas associated factor 1),SID134313936,-0.64,-0.87,-0.52,-0.55

Reformatted: entries from further up
RUVBL1 (RuvB like AAA ATPase 1) [SID134313818]
- mean z-score: 0.4
- z-score, replicate A: 0.3
- z-score, replicate B: 0.36
- z-score, replicate C: 0.53

VDAC2 (voltage dependent anion channel 2) [SID134323532]
- mean z-score: -0.75
- z-score, replicate A: -0.72
- z-score, replicate B: -0.75
- z-score, replicate C: -0.77

LOC339760 (retired record) [SID134325542]
- mean z-score: -0.25
- z-score, replicate A: -0.43
- z-score, replicate B: -0.09
- z-score, replicate C: -0.22

INTS1 (integrator complex subunit 1) [SID134326301]
- mean z-score: 4.94 (active)
- z-score, replicate A: 5.12
- z-score, replicate B: 5.01
- z-score, replicate C: 4.71

Additional entries:
gene symbol,PubChem SID,mean z-score,"z-score, replicate A","z-score, replicate B","z-score, replicate C"
SLC27A3,SID134312545,-0.26,-0.22,-0.13,-0.43
ME2 (malic enzyme 2),SID134314200,0.51,0.54,0.64,0.36
SLC22A10,SID134328256,0.27,0.58,0.04,0.19
"B4GALT5 (beta-1,4-galactosyltransferase 5)",SID134314959,-1.03,-1.06,-1.08,-0.95
ATXN3L (ataxin 3 like),SID134326215,-0.23,-0.16,-0.28,-0.26
FUT1 (fucosyltransferase 1 (H blood group)),SID134313801,-0.39,-0.56,-0.54,-0.07
LOC392217 (retired record),SID134327947,-0.02,-0.39,0.33,0
EDF1 (endothelial differentiation related factor 1),SID134314421,-1.38,-1.27,-1.19,-1.69
MORF4L1 (mortality factor 4 like 1),SID134311765,-0.1,0.01,-0.18,-0.13
CAPZA2 (capping actin protein of muscle Z-line subunit alpha 2),SID134316502,0.63,0.62,0.7,0.57
ZC3H4 (zinc finger CCCH-type containing 4),SID134325865,0.23,0.82,-0.11,-0.01
PICALM (phosphatidylinositol binding clathrin assembly protein),SID134310221,1.38,1.39,1.67,1.07
FRMD5 (FERM domain containing 5),SID134319101,0.44,-0.21,0.73,0.81
LOC388481 (retired record),SID134328878,-0.35,-0.77,-0.29,0.02
FCER2 (Fc epsilon receptor II),SID134320242,-0.5,-0.51,-0.33,-0.64
GGN (gametogenetin),SID134322985,-1.95,-1.99,-1.32,-2.54
SMIM11 (small integral membrane protein 11),SID134320920,-0.9,-0.55,-0.87,-1.28
"ST3GAL3 (ST3 beta-galactoside alpha-2,3-sialyltransferase 3)",SID134316543,-0.02,-0.31,-0.01,0.26
MRGPRX4 (MAS related GPR family member X4),SID134311107,-0.2,-0.31,-0.22,-0.07
"AGL (amylo-alpha-1,6-glucosidase and 4-alpha-glucanotransferase)",SID134315352,0.59,0.43,0.5,0.83
